# In patent US20220089698A1, “ANTIBODIES THAT TARGET HIV GP120 AND METHODS OF USE” (published 2022):
# B1: 2.2.1-1 (antibody, human IgG1, kappa)
# heavy: QVHLSQSGAAVTKPGASVRVSCEASGYKIRDHFIHWWRQAPGQGLQWVGWINPKTGQPNNPRQFQGRVSLTRHASWDFDTFSFYMDLKAVRSDDTAIYFCARQRSDYWDFDVWGSGTQVTVSSASTKGPSVFPLAPSSKSTSGGTAALGCLVKDYFPEPVTVSWNSGALTSGVHTFPAVLQSSGLYSLSSVVTVPSSSLGTQTYICNVNHKPSNTKVDKKVEPKSCDKTHTCPPCPAPELLAGPDVFLFPPKPKDTLMISRTPEVTCVVVDVSHEDPEVKFNWYVDGVEVHNAKTKPREEQYNSTYRVVSVLTVLHQDWLNGKEYKCKVSNKALPLPEEKTISKAKGQPREPQVYTLPPSREEMTKNQVSLTCLVKGFYPSDIAVEWESNGQPENNYKTTPPVLDSDGSFFLYSKLTVDKSRWQQGNVFSCSVLHEALHSHYTQKSLSLSPGK
# light: not shown
# B2: 1.45.1-1 (antibody, human IgG1, kappa)
# heavy: B1 heavy with H3Q, S5L, K28N, R30S, H32Y, V90L, I97V
# light: not shown
# B3: 1.47.1-1 (antibody, human IgG1, kappa)
# heavy: B1 heavy with H3Q, S5L, K28N, H32Y, H73Q, V90L, I97V
# light: not shown
# B4: 1.46.1-1 (antibody, human IgG1, kappa)
# heavy: B1 heavy with H3Q, S5L, K28N, V90L, I97V
# light: not shown
# B5: 2.3.10-1 (antibody, human IgG1, kappa)
# heavy: B1 heavy with K28N, H32Y
# light: not shown
# B6: 1.50.1-1 (antibody, human IgG1, kappa)
# heavy: B1 heavy with H3Q, S5L, K28N, H32Y, V90L
# light: not shown
# B7: 2.3.1-1 (antibody, human IgG1, kappa)
# heavy: B1 heavy with K28N, H32Y
# light: not shown
# B8: 2.3.11-1 (antibody, human IgG1, kappa)
# heavy: B1 heavy with K28N, H32Y
# light: not shown
# B9: 2.3.8-1 (antibody, human IgG1, kappa)
# heavy: B1 heavy with K28N, H32Y
# light: not shown
# B10: 1.42.1-1 (antibody, human IgG1, kappa)
# heavy: B1 heavy with S5L, K28N, H32Y, V90L, I97V
# light: not shown
# B11: 2.2.8-1 (antibody, human IgG1, kappa)
# heavy: B1 heavy
# light: not shown
# B12: 2.2.10-1 (antibody, human IgG1, kappa)
# heavy: B1 heavy
# light: not shown
# B13: 1.1.135-1 (antibody, human IgG1, kappa)
# heavy: B1 heavy with H3Q, S5L, K28N, H32Y, V90L, I97V
# light: not shown
# B14: 2.2.14-1 (antibody, human IgG1, kappa)
# heavy: B1 heavy
# light: not shown
# B15: 1.49.1-1 (antibody, human IgG1, kappa)
# heavy: B1 heavy with H3Q, S5L, K28N, H32Y, I97V
# light: not shown
# B16: 2.2.11-1 (antibody, human IgG1, kappa)
# heavy: B1 heavy
# light: not shown
# B17: 1.51.1-1 (antibody, human IgG1, kappa)
# heavy: B1 heavy with H3Q, S5L, K28N, H32Y, V90L, I97V, Y107F
# light: not shown
# B18: 1.43.1-1 (antibody, human IgG1, kappa)
# heavy: B1 heavy with H3Q, K28N, H32Y, V90L, I97V
# light: not shown
# B19: 2.2.9-1 (antibody, human IgG1, kappa, V domains shown)
# VH: QVHLSQSGAAVTKPGASVRVSCEASGYKIRDHFIHWWRQAPGQGLQWVGWINPKTGQPNNPRQFQGRVSLTRHASWDFDTFSFYMDLKAVRSDDTAIYFCARQRSDYWDFDVWGSGTQVTVSS
# VL: DIQMTQSPSSLSARVGDTATITCQANGYLNWYQQRRGKAPKLLIYDGSKLERGVPARFSGRRWGQEYNLTINNLQPEDVATYFCQVYEFFGPGTRLDLKR
# B20: 2.2.18-1 (antibody, human IgG1, kappa, V domains shown)
# VH: B19 VH
# VL: B19 VL with T18R, R61S, N68H, N72S, N73S
# B21: 2.3.18-1 (antibody, human IgG1, kappa, V domains shown)
# VH: B19 VH with K28N, H32Y
# VL: B19 VL with T18R, R61S, N68H, N72S, N73S
# B22: 2.2.17-1 (antibody, human IgG1, kappa, V domains shown)
# VH: B19 VH
# VL: B19 VL with N68H
# B23: 2.3.17-1 (antibody, human IgG1, kappa, V domains shown)
# VH: B19 VH with K28N, H32Y
# VL: B19 VL with N68H
# B24: 2.3.9-1 (antibody, human IgG1, kappa, V domains shown)
# VH: B19 VH with K28N, H32Y
# VL: B19 VL
# B25: 2.3.12-1 (antibody, human IgG1, kappa, V domains shown)
# VH: B19 VH with K28N, H32Y
# VL: B19 VL with N68I
# B26: 2.3.7-1 (antibody, human IgG1, kappa, V domains shown)
# VH: B19 VH with K28N, H32Y
# VL: B19 VL with T18R, R61S, N68T, N72S, N73S
# B27: 2.2.12-1 (antibody, human IgG1, kappa, V domains shown)
# VH: B19 VH
# VL: B19 VL with N68I
# B28: 2.3.13-1 (antibody, human IgG1, kappa, V domains shown)
# VH: B19 VH with K28N, H32Y
# VL: B19 VL with T18R, R61S, N68I, N72S, N73S
# B29: 2.2.13-1 (antibody, human IgG1, kappa, V domains shown)
# VH: B19 VH
# VL: B19 VL with T18R, R61S, N68I, N72S, N73S
# B30: 2.2.15-1 (antibody, human IgG1, kappa, V domains shown)
# VH: B19 VH
# VL: B19 VL with N68T
# B31: 2.2.7-1 (antibody, human IgG1, kappa, V domains shown)
# VH: B19 VH
# VL: B19 VL with T18R, R61S, N68T, N72S, N73S
# B32: 2.3.15-1 (antibody, human IgG1, kappa, V domains shown)
# VH: B19 VH with K28N, H32Y
# VL: B19 VL with N68T
# What was measured:
# Assay in all cases: cell-based or functional assay
# [1] = target: HIV-1 envelope glycoprotein (gp120) of virus 92US712 (HIV-1)
# [2] = target: HIV-1 envelope glycoprotein (gp120) of virus VS001 (HIV-1)
# [3] = target: HIV-1 envelope glycoprotein (gp120) of virus 7141 (HIV-1)
# [4] = target: HIV-1 envelope glycoprotein (gp120) of virus 92US727 (HIV-1)
Binder,Neutralization IC50 [1],Neutralization IC50 [2],Neutralization IC50 [3],Neutralization IC50 [4]
B1,0.05 µg/mL,0.1 µg/mL,1.61 µg/mL,
B2,,27.6 µg/mL,> 50 µg/mL,> 50 µg/mL
B3,,0.24 µg/mL,2.48 µg/mL,1.17 µg/mL
B4,,0.24 µg/mL,2.44 µg/mL,1.68 µg/mL
B5,0.09 µg/mL,0.94 µg/mL,15.3 µg/mL,> 50 µg/mL
B6,,0.14 µg/mL,2.54 µg/mL,0.92 µg/mL
B7,0.13 µg/mL,0.2 µg/mL,2.65 µg/mL,
B8,0.07 µg/mL,0.83 µg/mL,11.2 µg/mL,> 50 µg/mL
B9,0.07 µg/mL,0.15 µg/mL,1.64 µg/mL,1.72 µg/mL
B10,,0.11 µg/mL,2.34 µg/mL,0.98 µg/mL
B11,0.07 µg/mL,0.07 µg/mL,1.6 µg/mL,3.38 µg/mL
B12,0.05 µg/mL,0.79 µg/mL,4.31 µg/mL,> 50 µg/mL
B13,,0.31 µg/mL,4 µg/mL,5.61 µg/mL
B14,0.06 µg/mL,0.21 µg/mL,2.26 µg/mL,> 50 µg/mL
B15,,0.26 µg/mL,2.98 µg/mL,2.41 µg/mL
B16,0.04 µg/mL,0.4 µg/mL,2.65 µg/mL,> 50 µg/mL

Binder,Neutralization IC50 [1],Neutralization IC50 [2],Neutralization IC50 [3],Neutralization IC50 [4]
B17,,0.22 µg/mL,3.5 µg/mL,2.67 µg/mL
B18,,0.1 µg/mL,2.42 µg/mL,3.35 µg/mL
B19,0.06 µg/mL,,,
B20,0.09 µg/mL,,,
B21,0.16 µg/mL,,,
B22,0.05 µg/mL,,,
B23,0.08 µg/mL,,,
B24,0.09 µg/mL,,,
B25,0.09 µg/mL,,,
B26,0.07 µg/mL,,,
B27,0.04 µg/mL,,,
B28,0.14 µg/mL,,,
B29,0.08 µg/mL,,,
B30,0.03 µg/mL,,,
B31,0.04 µg/mL,,,
B32,0.1 µg/mL,,,

# Positions count from the first letter of the chain named.
